Assay results reported in patent publication US20260384408A1, “SUBSTITUTED BENZODIAZEPINES AS FUNGICIDES” (published 2026).

How the values were obtained:
Botrytis cinerea [1] = assay: Long lasting control of Botrytis cinerea on leaves of green pepper (greenhouse); details: 63 ppm, inoculated 7 days after spraying, assessed after 5 days, untreated 90% infected
Botrytis cinerea [2] = assay: Preventative fungicidal control of Botrytis cinerea on leaves of green pepper (greenhouse); details: 250 ppm, inoculated next day, assessed after 5 days, untreated 90% infected
Sclerotinia sclerotiorum [3] = assay: Preventative fungicidal control of white mold on oilseed rape caused by Sclerotinia sclerotiorum (greenhouse); details: 100 g/ha, 14 days, untreated 100% infected
Sclerotinia sclerotiorum [4] = assay: Preventative fungicidal control of white mold on soybeans caused by Sclerotinia sclerotiorum (greenhouse); details: 250 ppm, inoculated next day, 6 days, untreated 100% infected

Row | SMILES | growth of the pathogen (% diseased leaf area) (Botrytis cinerea [1]) | growth of the pathogen (% diseased leaf area) (Botrytis cinerea [2]) | growth of the pathogen (% diseased leaf area) (Sclerotinia sclerotiorum [3]) | growth of the pathogen (% diseased leaf area) (Sclerotinia sclerotiorum [4])
1 | CCCN1C(=O)C(C)(C)N=C(c2cnc(C(F)F)c(C)c2)c2cccc(F)c21 | at most 17% | at most 13% |  | 
2 | Cc1cc(C2=NC(=O)C(C)(C)N(Cc3ccccc3)c3ccccc32)cnc1C(F)F |  |  | at most 2% | 
3 | Cc1cc(C2=NC(C)(C)C(=O)N(C(C)C)c3c(F)cccc32)cnc1C(F)F | at most 17% | at most 13% |  | 
4 | Cc1cc(C2=NC3(CC3)CN(C)c3c(F)cccc32)cnc1C(F)F |  | at most 13% | at most 2% | at most 14%
5 | Cc1cc(C2=NCCN(C)c3c(F)cccc32)cnc1C(F)F |  |  |  | at most 14%
6 | Cc1cc(C2=N[C@@H](C)[C@@H](C)N(C)c3c(F)cccc32)cnc1C(F)F (racemic) |  | at most 13% | at most 2% | at most 14%
7 | Cc1cc(C2=N[C@@H](C)[C@H](C)N(C)c3c(F)cccc32)cnc1C(F)F (racemic) |  | at most 13% | at most 2% | at most 14%
